Measured values from several laboratories, pooled; numbers as filed in NIAID ChemDB.

Shared fields: whole-cell or culture tests; organism: Candida albicans

MIC50, MIC90 and the like: level of inhibition, or share of isolates inhibited. Rows are shuffled and stem from different studies. Blank or dashed fields: not listed here.

smiles,endpoint,strain or isolate,value
CS(=O)(=O)c1ccc(CSc2ncccc2CN2CCN(C(=N)N)CC2)cc1,MIC50,SC5314 CAI,>100 µg/mL
COc1ccc(C2=NN(C(C)=O)C(c3cc(OC)c(OC)c(OC)c3)C2)cc1OC,MBC,DSM 70014,25 µg/mL
CC1C=C(c2ccccc2Cl)C(=O)O1,MIC,ATCC 44859,>125 µM
N=C(N)N1CCN(Cc2cccnc2SCc2cccc(-c3ccccc3)c2)CC1,MIC50,SC5314 CAI,20 µg/mL
CC1=C(Nc2cccc(Br)c2)C(=O)c2sc(C)nc2C1=O,MIC,ATCC20231,>100 µg/mL
N=C(N)N1CCN(Cc2cccnc2SCc2c(F)cccc2Cl)CC1,MIC50,SC5314 CAI,>100 µg/mL
COc1ccc(O)c(C2Sc3ccccc3C2CO)c1,MIC,-,25 µg/mL
CCCCCCCCOc1ccc(-c2ccc(C(=O)NC3CC(NCCN)CNC(=O)[C@@H]4[C@@H](O)[C@@H](C)CN4C(=O)[C@@H](CO)NC(=O)[C@H]([C@H](O)Cc4ccccc4)NC(=O)[C@@H]4C[C@@H](O)CN4C(=O)[C@H]([C@@H](C)O)NC3=O)cc2)cc1,MIC90,30 isolates fluconazole-susceptible,0.25 µg/mL
CC1=C(Sc2ccc(Cl)cc2)C(=O)c2sc(C)nc2C1=O,MIC,ATCC20231,100 µg/mL
OCC1c2ccccc2SC1c1ccc2c(c1)OCO2,MIC,-,25 µg/mL
CC1C=C(c2ccc(Br)c3ccccc23)C(=O)O1,MIC,ATCC 44859,>125 µM
CCOc1ccccc1N1COc2c(ccc3ccccc23)C1,MIC,MTCC 277,15 µg/mL
COc1cc(-c2n[nH]c(COc3ncnc4ccccc34)n2)cc(OC)c1OC,MIC100,MTCC 227,6.25 µg/mL
Cc1ccccc1N1COc2c(ccc3ccccc23)C1,MIC,MTCC 277,15 µg/mL
Oc1ccc(-c2n[nH]c(COc3nc(C(F)(F)F)nc4ccccc34)n2)cc1,MIC100,MTCC 227,12.5 µg/mL
COc1ccc(SC2=C(O)C(=O)c3nc(C)sc3C2=O)cc1,MIC,ATCC20231,>100 µg/mL
CCc1ccc(CSc2ncccc2CN2CCN(C(=N)N)CC2)cc1,MIC50,SC5314 CAI,37.5 µg/mL
Clc1ccccc1C(c1ccccc1)(c1ccccc1)n1ccnc1,MIC,DSM 70014,5 µg/mL
COc1cc(O)c2c(c1)C(=O)c1c(cc3c(c1O)-c1c(cc(C)c(C(=O)NC(CO)C(=O)O)c1O)[C@H](OC1OC(C)C(O)C(OC4OCC(O)C(O)C4O)C1O)C3O)C2=O,MIC50,97 isolates,4 µg/mL
C[C@H]1[C@H](O)[C@@H](C)/C=C/C=C/C=C/C=C/C=C/C=C/C=C/[C@H](O[C@@H]2O[C@H](C)[C@@H](O)[C@H](N)[C@@H]2O)C[C@@H]2O[C@](O)(C[C@@H](O)C[C@@H](O)CC[C@H](O)[C@@H](O)C[C@@H](O)CC(=O)O[C@H]1C)C[C@H](O)[C@H]2C(=O)O,Geometric mean MIC,10 strains (fluconazole-resistant),0.11 µg/mL
Clc1ccc(Cn2cc(Cn3ccnc3)c3cc(Br)ccc32)cc1,MIC80,CA980001,>100 µg/mL
COc1cc(C2CC(c3ccc4c(c3)OCO4)=NN2c2ccc([N+](=O)[O-])cc2)cc(OC)c1OC,MBC,DSM 70014,50 µg/mL
COc1cccc(C2Sc3ccccc3C2CO)c1O,MIC,-,50 µg/mL
Clc1ccc(C(Cn2ccnc2)OCc2csc3c(Cl)cccc23)c(Cl)c1,Mean MIC,10 strains,4.64 µg/mL
Clc1ccc(-c2n[nH]c(COc3ncnc4ccccc34)n2)cc1,MIC100,MTCC 227,25 µg/mL
NCCNC(=O)C1=Nc2ccc(NC(=O)C3=Nc4ccc(C(=O)Nc5ccc6[nH]c(C(=O)NCCN)cc6c5)cc4C3)cc2C1,MIC90,31 isolates,15 µg/mL
CCC(C)CC(C)CCCCCCCCC(=O)N[C@H]1C[C@@H](O)[C@H](NCCN)NC(=O)[C@@H]2[C@@H](O)CCN2C(=O)[C@H]([C@H](O)CCN)NC(=O)[C@H]([C@H](O)[C@@H](O)c2ccc(O)cc2)NC(=O)[C@@H]2C[C@@H](O)CN2C(=O)[C@H]([C@@H](C)O)NC1=O,MIC90,40 strains,0.5 µg/mL
Fc1ccc(CCCCn2c3c(c4cc(F)ccc42)CNCC3)cc1,MIC,OY8-47,1 µg/mL
c1csc(-c2n[nH]c(COc3ncnc4ccccc34)n2)c1,MIC100,MTCC 227,6.25 µg/mL
CCCC(c1cn(Cc2ccc(Cl)cc2)c2ccccc12)n1ccnc1,MIC80,CA980001,>100 µg/mL
CCCCCCCCCCCCCCCCOC(=O)OC1CC[C@@]2(C)C(=CCC3C2CC[C@@]2(C)C3CC[C@@H]2[C@@H](C)CCCC(C)C)C1,MIC100,ATCC 90028,840 µg/mL
COc1ccc(C2=NN(C=O)C(c3cc(OC)c(OC)c(OC)c3)C2)cc1OC,MIC,DSM 70014,50 µg/mL
N=C(N)N1CCN(Cc2cccnc2SCc2ccc(Cl)cc2)CC1,MIC50,SC5314 CAI,75 µg/mL
COc1ccc(NC(=O)CSC2NC(c3ccc4c(c3)OCO4)=CC(c3cc(OC)c(OC)c(OC)c3)N2)cc1,MBC,DSM 70014,100 µg/mL
Cc1c(O)cccc1C(=O)N[C@@H](CSc1ccccc1)[C@H](O)CN1C[C@H]2CCCC[C@H]2C[C@H]1C(=O)NC(C)(C)C,MIC,I9F,64 µg/mL
COc1cccc(N2COc3c(ccc4ccccc34)C2)c1,MIC,MTCC 277,10 µg/mL
COc1cc(C2CC(c3ccc4c(c3)OCO4)=NN2C=O)cc(OC)c1OC,MBC,DSM 70014,25 µg/mL
Cc1c(C(C)n2ccnc2)c2ccccc2n1Cc1ccc(Br)cc1,MIC80,CA980001,>100 µg/mL
Cc1ccc(C2=CC(C)OC2=O)cc1,MIC,ATCC 44859,>125 µM
CCCC(c1cn(Cc2ccc(Cl)cc2)c2ccc(Br)cc12)n1ccnc1,MIC80,CA980001,>100 µg/mL
CCCCCC1C=C(c2ccc(Br)cc2)C(=O)O1,MIC,ATCC 44859,>125 µM
Cc1ccc(-c2n[nH]c(COc3ncnc4ccccc34)n2)cc1,MIC100,MTCC 227,12.5 µg/mL
OCC1c2ccccc2SC1c1ccc(O)cc1O,MIC,-,100 µg/mL
Fc1ccccc1Cn1cc(Cn2ccnc2)c2cc(Br)ccc21,MIC80,CA980001,>100 µg/mL
CN(C)c1ccc(C2Sc3ccccc3C2CO)cc1,MIC,-,50 µg/mL
CC1=CC(=O)c2sc(C)nc2C1=O,MIC,ATCC20231,>100 µg/mL
COc1ccc(C2=CC(c3cc(OC)c(OC)c(OC)c3)NC(SCC(=O)Nc3ccc(Cl)cc3)N2)cc1OC,MBC,DSM 70014,50 µg/mL
C=C1CO[C@H]2[C@@H](C)OC(OC[C@@]34C[C@H]5[C@H](C)CC[C@@H]5[C@@]5(C=O)C[C@@H]3C=C(C(C)C)[C@@]45C(=O)O)C[C@@H]12,MIC90,40 strains (fluconazole-resistant),0.12 µg/mL
N=C(N)N1CCN(Cc2cccnc2SCc2cccc(Cl)c2)CC1,MIC50,SC5314 CAI,75 µg/mL
COc1ccc(/C=c2\sc3n(c2=O)C(c2cc(OC)c(OC)c(OC)c2)C=C(c2ccc(OC)c(OC)c2)N=3)cc1OC,MBC,DSM 70014,50 µg/mL

A second listing of 4 rows from above:

| smiles | endpoint | strain or isolate | value |
|---|---|---|---|
| COc1ccc(NC(=O)CSC2NC(c3ccc4c(c3)OCO4)=CC(c3cc(OC)c(OC)c(OC)c3)N2)cc1 | MBC | DSM 70014 | 100 µg/mL |
| Fc1ccc(CCCCn2c3c(c4cc(F)ccc42)CNCC3)cc1 | MIC | OY8-47 | 1 µg/mL |
| Oc1ccc(-c2n[nH]c(COc3nc(C(F)(F)F)nc4ccccc34)n2)cc1 | MIC100 | MTCC 227 | 12.5 µg/mL |
| COc1cc(-c2n[nH]c(COc3ncnc4ccccc34)n2)cc(OC)c1OC | MIC100 | MTCC 227 | 6.25 µg/mL |